Test system: C[C@H](CCC(=O)SCCNC(=O)CCNC(=O)[C@H](O)C(C)(C)COP(=O)(O)OP(=O)(O)OC[C@H]1O[C@@H](n2cnc3c(N)ncnc32)[C@H](O)[C@@H]1OP(=O)(O)O)[C@H]1CC[C@H]2[C@@H]3CCC4=CC(=O)CC[C@]4(C)[C@H]3CC[C@]12C
Test: purified protein
Details: pH 8.5; 25.0 °C

Substance: ChsE3 (Mycobacterium tuberculosis H37Rv)
- Km: 28 ± 8 µM
- kcat/Km: 180000 M⁻¹ s⁻¹

From paper PMC4489319 (ACS Infectious Diseases, 2015)
